Experimental data taken from the CheMixHub viscosity set.

Experiment: xn = mol fraction of the nth substance listed

CCCCOP(=O)(OCCCC)OCCCC + CCc1ccccc1
viscosity [mPa·s], 100 kPa
Conditions	303.15 K	308.15 K	313.15 K	318.15 K	323.15 K
x1 = 0.0506	0.676	0.634	0.598	0.567	0.535
x1 = 0.1005	0.758	0.711	0.671	0.634	0.6
x1 = 0.15	0.845	0.791	0.744	0.702	0.662
x1 = 0.1999	0.939	0.876	0.821	0.77	0.723
x1 = 0.25	1.038	0.964	0.9	0.84	0.784
x1 = 0.3	1.142	1.055	0.982	0.912	0.846
x1 = 0.3509	1.252	1.151	1.068	0.987	0.909
x1 = 0.3997	1.361	1.247	1.152	1.061	0.972
x1 = 0.4499	1.477	1.348	1.241	1.139	1.039
x1 = 0.5	1.596	1.451	1.333	1.219	1.108
x1 = 0.5498	1.718	1.557	1.427	1.301	1.179
x1 = 0.6001	1.844	1.667	1.524	1.387	1.253
x1 = 0.6491	1.969	1.777	1.621	1.472	1.328
x1 = 0.6991	2.1	1.891	1.722	1.561	1.406
x1 = 0.7498	2.235	2.01	1.826	1.654	1.488
x1 = 0.7999	2.373	2.131	1.932	1.747	1.57
x1 = 0.8502	2.514	2.255	2.039	1.842	1.653
x1 = 0.8996	2.656	2.38	2.147	1.937	1.734

CCCCOP(=O)(OCCCC)OCCCC + Cc1ccccc1
viscosity [mPa·s]
Conditions	303.15 K	303.2 K	308.15 K	313.15 K	318.15 K	323.15 K
100 kPa, x1 = 0.0488	0.619	–	0.581	0.551	0.521	0.493
100 kPa, x1 = 0.08	–	0.6417	–	–	–	–
100 kPa, x1 = 0.1002	0.738	–	0.692	0.651	0.61	0.583
100 kPa, x1 = 0.1498	0.858	–	0.801	0.749	0.699	0.667
100 kPa, x1 = 0.19	–	0.9502	–	–	–	–
100 kPa, x1 = 0.2021	0.988	–	0.917	0.854	0.793	0.751
100 kPa, x1 = 0.2499	1.109	–	1.024	0.95	0.879	0.825
100 kPa, x1 = 0.2998	1.235	–	1.134	1.049	0.969	0.9
100 kPa, x1 = 0.34	–	1.133	–	–	–	–
100 kPa, x1 = 0.3495	1.36	–	1.244	1.147	1.056	0.972
100 kPa, x1 = 0.3995	1.485	–	1.352	1.244	1.142	1.044
100 kPa, x1 = 0.4496	1.608	–	1.46	1.338	1.225	1.114
100 kPa, x1 = 0.4998	1.728	–	1.566	1.431	1.307	1.183
100 kPa, x1 = 0.5504	1.848	–	1.672	1.523	1.387	1.252
100 kPa, x1 = 0.58	–	1.599	–	–	–	–
100 kPa, x1 = 0.5999	1.963	–	1.774	1.612	1.464	1.319
100 kPa, x1 = 0.6488	2.076	–	1.874	1.698	1.539	1.386
100 kPa, x1 = 0.7	2.194	–	1.978	1.788	1.617	1.456
100 kPa, x1 = 0.7499	2.31	–	2.08	1.877	1.694	1.526
100 kPa, x1 = 0.8	2.43	–	2.184	1.968	1.774	1.597
100 kPa, x1 = 0.85	2.554	–	2.289	2.062	1.857	1.67
100 kPa, x1 = 0.9	2.685	–	2.398	2.161	1.946	1.745
101 kPa, x1 = 0.103	0.779	–	0.741	0.705	0.673	–
101 kPa, x1 = 0.2	0.945	–	0.893	0.835	0.794	–
101 kPa, x1 = 0.4	1.468	–	1.35	1.254	1.167	–
101 kPa, x1 = 0.6	1.97	–	1.801	1.661	1.536	–
101 kPa, x1 = 0.8	2.418	–	2.189	2	1.83	–
101 kPa, x1 = 0.9	2.674	–	2.419	2.206	2.009	–
101.33 kPa, x2 = 0.1	2.575	–	2.322	2.11	1.918	–
101.33 kPa, x2 = 0.2	2.323	–	2.095	1.915	1.74	–
101.33 kPa, x2 = 0.4	1.87	–	1.67	1.563	1.44	–
101.33 kPa, x2 = 0.6	1.366	–	1.25	1.16	1.075	–
101.33 kPa, x2 = 0.8	0.854	–	0.805	0.75	0.709	–
101.33 kPa, x2 = 0.897	0.69	–	0.655	0.62	0.59	–
